Results of unrelated studies side by side (data: NIAID ChemDB).

All rows: whole-cell or culture tests; agent: Candida albicans; read by: agar diffusion / agar; measure: zone

Zones are inhibition diameters on agar.

structure	dose	strain or isolate	result
CN(C)c1ccc(C2c3ccc4ccccc4c3Oc3nc(-c4cc5ccccc5oc4=O)[nH]c(=O)c32)cc1	100 µg/mL	-	11 mm
COc1ccc(/C=C2\SC(=O)N(CC(=O)c3ccccc3)C2=O)cc1	5000 µg/mL	ATCC 90028	18 mm
Cc1ccc(S(=O)(=O)CNc2oc3[nH]c(=O)[nH]c(=O)c3c2-c2ccc([N+](=O)[O-])cc2)cc1	100 µg/mL	-	3 mm
COc1cccc(/C=C/C(=O)c2ccc(C(=O)/C=C/c3cccc(OC)c3)cc2)c1	400 µg/mL	ATCC 10231	0 mm
COc1ccc(/C=C2\SC(=O)N(CC(=O)c3ccc(OC)cc3)C2=O)cc1	5000 µg/mL	ATCC 90028	18 mm
CC(=O)C1=NN(c2ccccc2)C2=Nc3nccc(-c4nn(-c5ccccc5)cc4-c4ccc([N+](=O)[O-])cc4)c3C(=O)C12	5 mg/mL	-	10 mm
Cc1c(Cc2ccc(Cl)cc2)nc(SCCN2CCOCC2)[nH]c1=O	200 µg/disc	ATCC 10231	<10 mm
CN(C)/C=C/C(=O)c1nn(-c2ccccc2)cc1-c1ccc([N+](=O)[O-])cc1	5 mg/mL	-	9 mm
COc1ccc(C2=NN(c3ccc([N+](=O)[O-])cc3)C(c3cc(OC)c(OC)c(OC)c3)C2)cc1OC	1 mg/mL	DSM 70014	14 mm
O=c1[nH]c(-c2cc3ccccc3oc2=O)nc2c1C(c1cccc([N+](=O)[O-])c1)c1ccc3ccccc3c1O2	100 µg/mL	-	9 mm
N#Cc1c(-c2ccccc2)csc1NC(=O)C1C=NN=C1N	1000 µg/mL	-	4 mm
COc1ccc(C2c3ccc4ccccc4c3Oc3nc(-c4cc5ccccc5oc4=O)[nH]c(=O)c32)cc1OC	100 µg/mL	-	14 mm
CCc1c(Cc2ccc(Cl)cc2)nc(SCCN2CCOCC2)[nH]c1=O	200 µg/disc	ATCC 10231	15 mm
COc1cc(C2CC(c3ccc4c(c3)OCO4)=NN2c2ccccc2)cc(OC)c1OC	1 mg/mL	DSM 70014	14 mm
C/C=C/N1C(=S)N(CN2CCN(c3ccccn3)CC2)NC1C12CC3CC(CC(C3)C1)C2	200 µg/disc	IFO 0583	<10 mm
COc1ccc(-c2cc(-c3cc(OC)c(OC)c(OC)c3)nc(NN)n2)cc1OC	1 mg/mL	DSM 70014	16 mm
CC(=O)c1ccc(-c2nn(-c3ccc(C)cc3)cc2-c2ccc([N+](=O)[O-])cc2)nc1C	2.5 mg/mL	-	4 mm
C1=N\n2c(nnc2-c2cccnc2)SCCCCSc2nnc(-c3cccnc3)n2/N=C\c2ccccc2OCCCCOc2ccccc2/1	5 mg/mL	RCMB 005003	1–5 mm
NNc1ncnc2c1cc(-c1ccccc1)n2-c1ccccc1	5 mg/mL	10145	15 mm
N#Cc1ccc(C(=O)CN2C(=O)S/C(=C\c3c(Cl)cccc3Cl)C2=O)cc1	5000 µg/mL	ATCC 90028	22 mm
Clc1ccccc1C(c1ccccc1)(c1ccccc1)n1ccnc1	200 µg/disc	-	21 mm
CCc1c(Cc2ccc(Cl)cc2)nc(SCCCN2C(=O)c3ccccc3C2=O)[nH]c1=O	200 µg/disc	ATCC 10231	12 mm
CCCCCCCCCCCCCCCCCCCCCC[C@H](O)CCCCCC	1000 µg/mL	-	12 mm
COc1ccc(C2=NN(c3ccccc3)C(c3cc(OC)c(OC)c(OC)c3)C2)cc1OC	1 mg/mL	DSM 70014	14 mm
COc1ccc(C2c3ccc4ccccc4c3Oc3nc(-c4cc5ccccc5oc4=O)[nH]c(=O)c32)cc1	100 µg/mL	-	12 mm
O=C(/C=C/c1cccc(Br)c1)c1ccc(C(=O)/C=C/c2cccc(Br)c2)cc1	400 µg/mL	ATCC 10231	0 mm
CCc1c(Cc2ccc(Cl)cc2)nc(SCCN2CCCCC2)[nH]c1=O	200 µg/disc	ATCC 10231	30 mm
COc1ccc(C2=CC(c3cc(OC)c(OC)c(OC)c3)N=C(SCC(C)=O)N2)cc1OC	1 mg/mL	DSM 70014	14 mm
C#Cc1c(-c2ccc(OC)cc2)c(C#N)c2nc(=O)c3c(-c4ccc(Cl)cc4)csc3n2c1N	1000 µg/mL	-	0 mm
CCOC(=O)C1=NN(c2ccccc2)C2=Nc3nccc(-c4nn(-c5ccccc5)cc4-c4ccc([N+](=O)[O-])cc4)c3C(=O)C12	5 mg/mL	-	9 mm
C#Cc1c(-c2ccc(C)cc2)c(C#N)c2nc(=O)c3c(-c4ccc(Cl)cc4)csc3n2c1N	1000 µg/mL	-	0 mm
Cc1ccc(-n2cc(-c3ccc([N+](=O)[O-])cc3)c(-c3ccn[nH]3)n2)cc1	2.5 mg/mL	-	8 mm
CCN1CCN(CN2NC(C34CC5CC(CC(C5)C3)C4)N(CC)C2=S)CC1	200 µg/disc	IFO 0583	<10 mm
CCc1c(Cc2ccc(OC)c(OC)c2)nc(SCCN2CCOCC2)[nH]c1=O	200 µg/disc	ATCC 10231	25 mm
COc1ccc(/C=C2\SC(=O)N(C(C)C(=O)c3ccccc3)C2=O)cc1	5000 µg/mL	ATCC 90028	16 mm
C[C@H]1[C@H](O)[C@@H](C)/C=C/C=C/C=C/C=C/C=C/C=C/C=C/[C@H](O[C@@H]2O[C@H](C)[C@@H](O)[C@H](N)[C@@H]2O)C[C@@H]2O[C@](O)(C[C@@H](O)C[C@@H](O)CC[C@H](O)[C@@H](O)C[C@@H](O)CC(=O)O[C@H]1C)C[C@H](O)[C@H]2C(=O)O	150 µg/mL	-	23.5 mm
NC(=O)c1cc(C(=O)CN2C(=O)S/C(=C\c3c(Cl)cccc3Cl)C2=O)ccc1O	5000 µg/mL	ATCC 90028	22 mm
COc1ccc(/C=C/C(=O)c2ccc(C(=O)/C=C/c3ccc(OC)c(OC)c3)cc2)cc1OC	400 µg/mL	ATCC 10231	0 mm
CCOC(=O)N1CCN(CN2NC(C34CC5CC(CC(C5)C3)C4)N(CC)C2=S)CC1	200 µg/disc	IFO 0583	<10 mm
COc1ccc(NC(=O)CSC2NC(c3ccc(OC)c(OC)c3)=CC(c3cc(OC)c(OC)c(OC)c3)N2)cc1	1 mg/mL	DSM 70014	14 mm
C#Cc1c(-c2ccc(OC)cc2)c(C#N)c2nc(=O)c3c(-c4ccccc4)csc3n2c1N	1000 µg/mL	-	0 mm
CSCC[C@H]1NC(=O)[C@H]2CCCN2C1=O	64 µg/mL	MTCC 277	18 mm

The last 3 rows once more:

structure	dose	strain or isolate	result
COc1ccc(NC(=O)CSC2NC(c3ccc(OC)c(OC)c3)=CC(c3cc(OC)c(OC)c(OC)c3)N2)cc1	1 mg/mL	DSM 70014	14 mm
C#Cc1c(-c2ccc(OC)cc2)c(C#N)c2nc(=O)c3c(-c4ccccc4)csc3n2c1N	1000 µg/mL	-	0 mm
CSCC[C@H]1NC(=O)[C@H]2CCCN2C1=O	64 µg/mL	MTCC 277	18 mm

An empty or dashed field is not shown. Two numbers with a dash give a range or band. Lines come from different laboratories, so protocols vary.